Measured values from several laboratories, pooled; numbers as filed in NIAID ChemDB.

Shared fields: tests in culture; organism: Human herpesvirus 6; read-out: EC50

ECn: concentration that inhibits the pathogen or its effect by n%. Neighbouring rows are from separate reports. Blank or dashed fields: not listed here.

structure	cells	method	strain or isolate	result
Nc1nc2c(ncn2CC[C@@H](O)CO)c(=O)[nH]1	HSB-2	cytopathic effect	GS	>200 µM
Nc1nc(N)c2ncn(C[C@@H](CO)OCP(=O)(O)O)c2n1	HSB-2	cytopathic effect	GS	8.1 µg/mL
Nc1nc2c(ncn2[C@@H]2C[C@H](CO)[C@H]2CO)c(=O)[nH]1	HSB-2	antigen / flow cytometry	GS	8.4 µM
Nc1nc2c(ncn2C[C@]2(CO)C[C@H]2CO)c(=O)[nH]1	Human cord blood lymphocytes	cytopathic effect		0.19 µM
COC(=O)[C@H](C)NP(=O)(OC[C@H]1C/C1=C/n1cnc2c(N)nc(N)nc21)Oc1ccccc1	HSB-2	ELISA	GS	20 µM
Nc1nc2c(ncn2C[C@@H](CO)OCP(=O)(O)O)c(=O)[nH]1	HSB-2	antigen / flow cytometry	GS	56 µM
COC(=O)[C@H](C)NP(=O)(OC[C@H]1C/C1=C\n1cnc2c(N)nc(N)nc21)Oc1ccccc1	HSB-2	ELISA	GS	55 µM
Nc1nc2c(ncn2C[C@@H]2COP(=O)(O)CO2)c(=O)[nH]1	HSB-2	cytopathic effect	GS	>25 µM
Nc1nc(N)c2ncn(CCOCP(=O)(O)O)c2n1	HSB-2	cytopathic effect	U1102 (TYPE 6A)	>153 µM
Nc1nc(N)c2ncn(CCOCP(=O)(O)O)c2n1	HSB-2	antigen	GS	2.8 µg/mL
O=c1[nH]c(=O)n([C@@H]2O[C@H](CO)[C@@H](O)[C@@H]2O)cc1/C=C/Br	HSB-2	cytopathic effect	U1102 (TYPE 6A)	>232 µM
Nc1ncnc2c1ncn2C[C@@H](CO)OCP(=O)(O)O	HSB-2	cytopathic effect	GS	3.1 µg/mL
O=c1[nH]c(=O)n([C@H]2C[C@H](O)[C@@H](CO)O2)cc1/C=C/Br	HSB-2	cytopathic effect	U1102 (TYPE 6A)	>3.5 µM
Nc1ccn(C[C@@H](CO)OCP(=O)(O)O)c(=O)n1	Human T-lymphoblasts			2.9 µM
Nc1nc2c(ncn2C[C@H](CO)OCP(=O)(O)O)c(=O)[nH]1	HSB-2	antigen / flow cytometry	GS	6.2 µM
Nc1ncc2c(ncn2COC(CO)CO)n1	HSB-2	cytopathic effect	U1102 (TYPE 6A)	0.27 µM

Repeating the first 2 entries:

structure | cells | method | strain or isolate | result
Nc1nc2c(ncn2CC[C@@H](O)CO)c(=O)[nH]1 | HSB-2 | cytopathic effect | GS | >200 µM
Nc1nc(N)c2ncn(C[C@@H](CO)OCP(=O)(O)O)c2n1 | HSB-2 | cytopathic effect | GS | 8.1 µg/mL